Patent US12173029B2, “Antiviral prodrugs, pharmaceutical formulations, and methods” (priority 2020, dated 2024)

Columns and labels:
Assay type in all cases: cell-based
[1] = tested on: USA WA-01 strain of SARS CoV-2; assay: Example 2 anti-coronavirus activity in Vero E6 cells (qPCR spike RNA); conditions: CC50/EC50, Vero E6 cells
Experimental: Ten thousand Vero E6 cells were seeded in 100 microliters of culture medium in 96 well plates. The following day serial two-fold dilutions of antiviral compounds or the DMSO-containing vehicle were added to each well. The USA WA-01 strain of SARS CoV-2 was added to each well at a multiplicity of infection of 0.1 thirty minutes later. Cells were incubated for 48 hours, washed twice in PBS and lysed with TRIzol. RNA was extracted using Directzol micro RNA columns. RNA was made into cDNA and assayed for the SARS CoV-2 spike protein and for a housekeeping gene (RPLPO) RNA by qPCR. Data represents the average of duplicate wells. Cellular cytotoxicity was also measured in VERO E6 cells. […] Cytotoxicity (CC50) was assessed using a commercially available MTT assay.

[2] = tested on: SARS-CoV-2 isolate USA-WA1/2020; assay: Example 3 SARS-CoV-2 infection in Vero E6 cells (qRT-PCR Spike RNA); conditions: Selectivity index, CC50/EC50, Vero E6 cells
[3] = tested on: SARS-CoV-2 isolate USA-WA1/2020; assay: Example 7 SARS-CoV-2 infection in Vero E6 cells (qRT-PCR); conditions: Selectivity index CC50/EC50, Vero E6 cells
[4] = tested on: SARS-CoV-2 isolate USA-WA1/2020; assay: Example 7 SARS-CoV-2 infection in Huh7.5 cells (qRT-PCR); conditions: Selectivity index CC50/EC50, Huh7.5 cells
[5] = tested on: SARS-CoV-2 isolate USA-WA1/2020; assay: Example 7 SARS-CoV-2 infection in PSC-human lung cells (qRT-PCR); conditions: Selectivity index CC50/EC50, PSC-human lung cells
[6] = tested on: SARS-CoV-2 isolate USA-WA1/2020; assay: Example 7 SARS-CoV-2 infection in Calu-3 cells (qRT-PCR); conditions: Selectivity index CC50/EC50, Calu-3 cells
[7] = tested on: SARS-CoV-2 isolate USA-WA1/2020; assay: Example 7 SARS-CoV-2 infection in Caco-2 cells (qRT-PCR); conditions: Selectivity index CC50/EC50, Caco-2 cells

CCCCCCCCCCCCCCCCOCCCOP(=O)(O)OC[C@H]1O[C@@](C#N)(c2ccc3c(N)ncnn23)[C@H](O)[C@@H]1O [Compound 4b, 3-(Hexadecyloxy)propyl-phospho-RVn]
Selectivity Index [1]: 25.0
Selectivity [2]: 52
Selectivity [3]: >158
Selectivity [4]: >526

CCCCCCCCCCCCCCCCCCOCCOP(=O)(O)OC[C@H]1O[C@@](C#N)(c2ccc3c(N)ncnn23)[C@H](O)[C@@H]1O [Compound 4c, 2-(Octadecyloxy)ethyl-phospho-RVn]
Selectivity Index [1]: >143
Selectivity [2]: >212
Selectivity [3]: >333
Selectivity [5]: >454
Selectivity [6]: 290
Selectivity [4]: >526
Selectivity [7]: >129
